A mixed list of measured activities; the numbers were collected in NIAID ChemDB.

Common to all: whole-cell or culture tests; organism: Mycobacterium tuberculosis

Blank or dashed fields: not listed here.

structure	conditions	read by	read-out	dose	strain	result
O=c1oc2ccccc2cc1-c1cs/c(=N\N=C\c2cc(Br)ccc2O)n1-c1ccccc1			inhibition	12.5 µg/mL	H37Rv	0%
Cc1cc(-c2cc3c(cc2F)c(=O)c(C(=O)O)cn3C2CC2)cc(C)n1			MIC		1685-6	2 µg/mL
CN(C)CCCN1c2ccccc2Sc2ccc(Cl)cc21			MBC		Isolate B drug-susceptible	20 µg/mL
CCCc1nn(C)c(CCC(=O)N(Cc2ccccc2)Cc2ccccc2)c1CC		resazurin	MIC bound		H37Rv	>6.25 µg/mL
C[C@H]1COc2c(N3CCN(C)CC3)c(F)cc3c(=O)c(C(=O)O)cn1c23			MIC		Isolate 7	4 µg/mL
CC(=O)OC1(C)OC(=O)C(C)N1[N+](=O)[O-]		BACTEC	inhibition	12.5 µg/mL	H37Rv	9%
CN[C@@H]1[C@H](O[C@H]2[C@H](O[C@H]3[C@H](O)[C@@H](O)[C@H](N=C(N)N)[C@@H](O)[C@@H]3N=C(N)N)O[C@@H](C)[C@]2(O)C=O)O[C@@H](CO)[C@H](O)[C@H]1O			MIC		84396	≥2 µg/mL
CC1COc2c(N3CCN(C)CC3)c(F)cc3c(=O)c(C(=O)O)cn1c23			Median MIC		H37Ra	0.5 µg/mL
CC[C@H]1OC(=O)[C@H](C)[C@@H](O[C@H]2C[C@@](C)(OC)[C@@H](O)[C@H](C)O2)[C@H](C)[C@@H](O[C@@H]2O[C@H](C)C[C@H](N(C)C)[C@H]2O)[C@](C)(OC)C[C@@H](C)C(=O)[C@H](C)[C@@H](O)[C@]1(C)O			MIC		MDR-3948 (MDR)	>8 µg/mL
CO/C(=N\N1CC1C(F)(F)F)c1ccncc1		BACTEC	inhibition	0.5 µM		0%
NNC(=O)c1ccncc1			MIC		H37Rv	0.08 µg/mL
O=C(/C=C/c1ccccc1)c1ccc(I)cc1O			EC50		H37Rv	>12.5 µg/mL
CC1COc2c(N3CCN(C)CC3)c(F)cc3c(=O)c(C(=O)O)cn1c23			MIC		ATCC 35828	0.5 µg/mL
NC[C@H]1O[C@H](O[C@H]2[C@H](O)[C@@H](O[C@H]3O[C@H](CO)[C@@H](O)[C@H](N)[C@H]3O)[C@H](N)C[C@@H]2N)[C@H](O)[C@@H](O)[C@@H]1O			MIC		Isolate 11	4 µg/mL
CC(=O)NC[C@H]1CN(c2ccc(N3CCN(c4ccc([N+](=O)[O-])s4)CC3)c(F)c2)C(=O)O1			MIC		PC	0.5 µg/mL
O=C(/C=C/c1cccc(O)c1)c1ccccc1O			inhibition	12.5 µg/mL	H37Rv	18%
CO[C@H]1/C=C/O[C@@]2(C)Oc3c(C)c(O)c4c(O)c(c5c(c4c3C2=O)NC2(CCN(CC(C)C)CC2)N=5)=NC(=O)/C(C)=C\C=C\[C@H](C)[C@H](O)[C@@H](C)[C@@H](O)[C@@H](C)[C@H](OC(C)=O)[C@@H]1C			MIC		CSU26	≤0.125 µg/mL
C[C@H]1COc2c(N3CCN(C)CC3)c(F)cc3c(=O)c(C(=O)O)cn1c23			MIC		7S	0.5 µg/mL
CO[C@H]1/C=C/O[C@@]2(C)Oc3c(C)c(O)c4c(O)c(c(/C=N/N5CCN(C)CC5)c(O)c4c3C2=O)NC(=O)/C(C)=C\C=C\[C@H](C)[C@H](O)[C@@H](C)[C@@H](O)[C@@H](C)[C@H](OC(C)=O)[C@@H]1C			MIC		Isolate 15	<0.03 µg/mL
CC[C@H]1OC(=O)[C@H](C)[C@@H](O[C@H]2C[C@@](C)(OC)[C@@H](O)[C@H](C)O2)[C@H](C)[C@@H](O[C@@H]2O[C@H](C)C[C@H](N(C)C)[C@H]2O)[C@](C)(OC)C[C@@H](C)C(=O)[C@H](C)[C@@H](O)[C@]1(C)O			MIC		3897	>4 µg/mL
Cc1ccc(-n2c(=O)oc3cc(C)ccc3c2=O)cc1			MIC		CNCTC MY331/88	125 µM
C/C(=N\NC(=O)c1ccncc1)c1ccccc1F			MIC		Ethambutol-resistant	0.2 µg/mL
COc1ccc2oc(=O)n(-c3ccc(C#N)cc3)c(=O)c2c1			MIC		CNCTC MY331/88	62.5 µM
Cc1nc(-c2cccnc2)sc1C(=O)CC(=O)C(=O)Nc1cccc(NC(=O)C(=O)CC(=O)c2sc(-c3cccnc3)nc2C)n1		resazurin	inhibition	6.25 µg/mL	H37Rv	11%
CCCCn1c(-c2cc3cc(Br)ccc3oc2=O)cs/c1=N\N=C\c1ccc(Cl)cc1			inhibition	12.5 µg/mL	H37Rv	71%
COc1ccc(Cc2nccc3cc(OC)c(OC)cc23)cc1OC		BACTEC	MIC		H37Rv	≥128 µg/mL
CC(NNC(=O)c1ccncc1)c1cccc(C(F)(F)F)c1			MIC		H37Rv (rifampin-resistant)	1.96 µg/mL
COc1ccc(C2Oc3ccc(Br)cc3C(=O)C2O)cc1			EC50			>12.5 µg/mL
COc1cc(C(=O)NN=C(C)C)cc(OC)c1OC		BACTEC	inhibition	12.5 µg/mL	H37Rv	0%
O=c1oc2ccc(Br)cc2c(=O)n1-c1cccc(F)c1			MIC		CNCTC MY331/88	16 µM
NC(=O)c1cnccn1			MIC		Isolate 11627 SM-resistant	>300 µg/mL
CC1=NNC(=O)C2CCCCC12			MIC			>10 µg/mL
COC(=O)[C@@]1(C)CCC[C@]2(C)c3cc(OC)ccc3C(=O)[C@H](Cl)[C@@H]12		BACTEC	inhibition	12.5 µg/mL	H37Rv	61%
CCCCCCCCCCCC(=O)N/N=C/c1ccccc1			MIC			>40 µg/mL
C[C@@H]1CN(c2c(F)c(N)c3c(=O)c(C(=O)O)cn(C4CC4)c3c2F)C[C@H](C)N1			Median MIC		H37Ra	0.07 µg/mL
CC1COc2c(N3CCN(C)CC3)c(F)cc3c(=O)c(C(=O)O)cn1c23		agar	MIC		SMI 21	0.5 µg/mL
C[C@H]1C[C@H](N)CN1c1cc2c(cc1F)c(=O)c(C(=O)O)cn2-c1ccc(F)cc1F			MIC90		DRUG-SUS	4 µg/mL
Cc1ccc(NC(=O)CC/C(CC(=O)C(C)(C)C)=N\NC(=O)C[n+]2ccccc2)cc1C.[Cl-]		BACTEC	MIC bound		H37Rv	>12.5 µg/mL
O=C(O)c1cn(C2CC2)c2c(F)c(N3CCSCC3)c(F)cc2c1=O			MIC		CSU18	0.5 µg/mL
CO[C@H]1/C=C/O[C@@]2(C)Oc3c(C)c(O)c4c(O)c(c(/C=N/N5CCN(C6CCCC6)CC5)c(O)c4c3C2=O)NC(=O)/C(C)=C\C=C\[C@H](C)[C@H](O)[C@@H](C)[C@@H](O)[C@@H](C)[C@H](OC(C)=O)[C@@H]1C			MIC		H37Rv (viomycin-resistant)	1.25 µg/mL
NCC[C@H](O)C(=O)N[C@@H]1C[C@H](N)[C@@H](O[C@H]2O[C@H](CN)[C@@H](O)[C@H](O)[C@H]2O)[C@H](O)[C@H]1O[C@H]1O[C@H](CO)[C@@H](O)[C@H](N)[C@H]1O		broth dilution / resazurin	MIC		MDR1	4 µg/mL
O=C(N/N=C/c1cccc(F)c1)c1ccncc1			MIC		Ciprofloxacin-resistant	0.2 µg/mL
Cc1ccc(-n2c(=O)oc3ccccc3c2=O)cc1			MIC		CNCTC MY331/88	62 µM
O=C1CC(c2ccccc2)Oc2ccc(Br)cc21			inhibition	12.5 µg/mL		8%
C/C(=N\NC(=O)c1ccncc1)c1ccc(Cl)cc1Cl			MIC		H37Rv	0.1 µg/mL
C=C1C(=O)O[C@@H]2C[C@@]3(C)C=CC(=O)C(=C)[C@@H]3C[C@H]12			MIC		PAS-R	>12.5 µg/mL
C[C@@H]1CN(c2c(F)c(N)c3c(=O)c(C(=O)O)cn(C4CC4)c3c2F)C[C@H](C)N1			MIC		CSU18	≤0.125 µg/mL
Nc1ccc(N)c2c1Oc1ccccc1O2		resazurin	inhibition	6.25 µg/mL	H37Rv	35%
O=C1CC(c2ccccc2)Oc2cc(F)ccc21			EC50		H37Rv	>12.5 µg/mL
CCOC(=O)C1CCCC12Nc1cccc3cccc(c13)N2		BACTEC	MIC		H37Rv	≥12.8 µg/mL
CO[C@H]1/C=C/O[C@@]2(C)Oc3c(C)c(O)c4c(O)c(c(/C=N/N5CCN(C6CCCC6)CC5)c(O)c4c3C2=O)NC(=O)/C(C)=C\C=C\[C@H](C)[C@H](O)[C@@H](C)[C@@H](O)[C@@H](C)[C@H](OC(C)=O)[C@@H]1C			Mean MIC		H37Rv	0.013 µg/mL
O=C(Nc1cc2c3cc(NC(=O)c4ccccc4)c4c(=O)c5ccccc5c(=O)c4c3[nH]c2c2c(=O)c3ccccc3c(=O)c12)c1ccccc1		BACTEC	MIC bound		H37Rv	>12.5 µg/mL
C[C@@H]1CN(c2c(F)c(N)c3c(=O)c(C(=O)O)cn(C4CC4)c3c2F)C[C@H](C)N1			MIC		MDR-1 (MDR)	0.2 µg/mL
CCOC(=O)c1c(C(C)=O)cnc2c(C#N)cnn12		resazurin	inhibition	6.25 µg/mL	H37Rv	4%
O=C(N/N=C/c1ccc(Cl)cc1)c1ccc(Nc2ccccc2)cc1			MIC			>40 µg/mL
Cc1onc(-c2ccccc2Cl)c1C(=O)N[C@@H]1C(=O)N2[C@@H]1SC(C)(C)[C@@H]2C(=O)O			Median MIC		H37Rv	>256 µg/mL
Cc1nc(Nc2ccc([N+](=O)[O-])cc2)sc1C(/C=C/c1ccc(N(C)C)cc1)=N/NC(=O)c1ccccc1		resazurin	MIC bound		H37Rv	>6.25 µg/mL
C/C(=N\NC(=O)c1ccncc1)c1ccccc1			MIC		Ethionamide-resistant	3.2 µg/mL
NNC(=O)C1CC=CC(Cl)C1C(=O)NN			MIC			>200 µg/mL
COc1cc2c3c(c1OC)Oc1ccc(cc1)CC1c4c(cc(OC)c(OC)c4Oc4ccc(cc4)CC3N(C)CC2)CCN1C		BACTEC	inhibition	12.5 µg/mL	H37Rv	15%
CC[C@H]1OC(=O)[C@H](C)[C@@H](O[C@H]2C[C@@](C)(OC)[C@@H](O)[C@H](C)O2)[C@H](C)[C@@H](O[C@@H]2O[C@H](C)C[C@H](N(C)C)[C@H]2O)[C@](C)(O)C[C@@H](C)C(=O)[C@H](C)[C@@H](O)[C@]1(C)O			MBC		H37Rv	>8 µg/mL
Nc1c(Br)cc(Br)c2c1C(=O)c1ccccc1C2=O		BACTEC	MIC bound		H37Rv	>12.5 µg/mL
O=C(NNCc1cccc(C(F)(F)F)c1)c1ccncc1			MIC		Isoniazid-resistant	>6.25 µg/mL
CCCCc1c(O)c(N=NC(=O)C[n+]2ccccc2)c2ccccc2c1O		BACTEC	inhibition	12.5 µg/mL	H37Rv	67%
NCC[C@H](O)C(=O)N[C@@H]1C[C@H](N)[C@@H](O[C@H]2O[C@H](CN)[C@@H](O)[C@H](O)[C@H]2O)[C@H](O)[C@H]1O[C@H]1O[C@H](CO)[C@@H](O)[C@H](N)[C@H]1O			MIC		7R	2.5 µg/mL
C[C@H]1COc2c(N3CCN(C)CC3)c(F)cc3c(=O)c(C(=O)O)cn1c23			MBC90		Drug-resistant	1 µg/mL
CN(C)NP(=O)(NN(C)C)c1ccccc1		BACTEC	MIC bound		H37Rv	>12.5 µg/mL
NNC(=O)c1ccncc1			MIC		CSU25	≤0.125 µg/mL
Cc1ccccc1S(=O)(=O)NNc1ccccc1			MIC			>200 µg/mL
C=CCn1c(-c2cc3ccccc3oc2=O)cs/c1=N\N=C\c1cc(Br)ccc1O			inhibition	12.5 µg/mL	H37Rv	83%
NC(=S)NN=C1CCCCCCCCCCC1		resazurin	MIC bound		H37Rv	>6.25 µg/mL
CO[C@H]1/C=C/O[C@@]2(C)Oc3c(C)c(O)c4c(=O)c(c5oc6cc(N7CCN(CC(C)C)CC7)cc(=O)c6nc5c4c3=C2O)NC(=O)/C(C)=C\C=C\[C@H](C)[C@H](O)[C@@H](C)[C@@H](O)[C@@H](C)[C@H](OC(C)=O)[C@@H]1C	inside macrophages		inhibition	1 µg/mL	Kurono	95.6%
CCCCn1c(-c2cc3ccccc3oc2=O)cs/c1=N\N=C\c1ccc(Cl)cc1			EC50		H37Rv	<12.5 µg/mL
C/C=C1/C(=O)O[C@]23C=C[C@@H]4C(C(=O)OC)=CO[C@H](O[C@@H]12)[C@@H]43		MTT	MBC		MDR4 clinical isolate	3.7 µg/mL
CCCCCCCCCCC[C@@H]1CCC[C@@H](C)N1			MIC		CS-R	12.8 µg/mL
CC(=O)Oc1ccc([C@H]2Oc3cc(OC(C)=O)cc(OC(C)=O)c3C(=O)[C@@H]2c2c(OC(C)=O)cc(OC(C)=O)c3c(=O)cc(-c4ccc(OC(C)=O)c(OC(C)=O)c4)oc23)cc1			inhibition	12.5 µg/mL		0%

Repeating the final 11 entries:

structure	conditions	read by	read-out	dose	strain	result
C[C@H]1COc2c(N3CCN(C)CC3)c(F)cc3c(=O)c(C(=O)O)cn1c23			MBC90		Drug-resistant	1 µg/mL
CN(C)NP(=O)(NN(C)C)c1ccccc1		BACTEC	MIC bound		H37Rv	>12.5 µg/mL
NNC(=O)c1ccncc1			MIC		CSU25	≤0.125 µg/mL
Cc1ccccc1S(=O)(=O)NNc1ccccc1			MIC			>200 µg/mL
C=CCn1c(-c2cc3ccccc3oc2=O)cs/c1=N\N=C\c1cc(Br)ccc1O			inhibition	12.5 µg/mL	H37Rv	83%
NC(=S)NN=C1CCCCCCCCCCC1		resazurin	MIC bound		H37Rv	>6.25 µg/mL
CO[C@H]1/C=C/O[C@@]2(C)Oc3c(C)c(O)c4c(=O)c(c5oc6cc(N7CCN(CC(C)C)CC7)cc(=O)c6nc5c4c3=C2O)NC(=O)/C(C)=C\C=C\[C@H](C)[C@H](O)[C@@H](C)[C@@H](O)[C@@H](C)[C@H](OC(C)=O)[C@@H]1C	inside macrophages		inhibition	1 µg/mL	Kurono	95.6%
CCCCn1c(-c2cc3ccccc3oc2=O)cs/c1=N\N=C\c1ccc(Cl)cc1			EC50		H37Rv	<12.5 µg/mL
C/C=C1/C(=O)O[C@]23C=C[C@@H]4C(C(=O)OC)=CO[C@H](O[C@@H]12)[C@@H]43		MTT	MBC		MDR4 clinical isolate	3.7 µg/mL
CCCCCCCCCCC[C@@H]1CCC[C@@H](C)N1			MIC		CS-R	12.8 µg/mL
CC(=O)Oc1ccc([C@H]2Oc3cc(OC(C)=O)cc(OC(C)=O)c3C(=O)[C@@H]2c2c(OC(C)=O)cc(OC(C)=O)c3c(=O)cc(-c4ccc(OC(C)=O)c(OC(C)=O)c4)oc23)cc1			inhibition	12.5 µg/mL		0%

MIC bound comes from a single tested concentration. Rows are shuffled and stem from different studies. ECn: concentration that inhibits the pathogen or its effect by n%. MIC50, MIC90 and the like: level of inhibition, or share of isolates inhibited. Percent inhibition refers to the dose given; in toxicity tests it is the harm to the cells.